Results of unrelated studies side by side (data: NIAID ChemDB).

Shared fields: cytotoxicity tests; cell line: MT-4; read by: MTT; read-out: CC50

Rows are shuffled and stem from different studies.

CC1CCCCN1CCCNCc1ccc(CNCCCN2CCCCC2C)cc1 ; value: >25 µg/mL
C#Cc1ccc(Nc2nccc(Oc3c(C)cc(-c4cn(Cc5ccccc5)nn4)cc3C)n2)cc1 ; value: 8.55 µM
Nc1ccn([C@H]2CC[C@@H](CO)O2)c(=O)n1 ; value: 120 µM
Cc1cc(C#N)cc(C)c1Oc1ccc(N)c(NC2CCN(Cc3ccc(S(C)(=O)=O)cc3)CC2)n1 ; value: 28 µM
C#Cc1ccc(Nc2nccc(Oc3c(C)cc(-c4cn(-c5ccc(C(=O)OC)cc5)nn4)cc3C)n2)cc1 ; value: >242 µM
Cc1cc(C)cc(C(=O)c2cccnc2Nc2cccnc2)c1 ; value: 41.63 µM
O=C(O)c1ccc2ccc(/C=C/c3cc(O)c(O)c(O)c3)nc2c1O ; value: >100 µM
CC(C)(C)NC(=O)[C@@H]1C[C@@H]2CCCC[C@@H]2CN1C[C@@H](OC(=O)COc1ccc(C[C@H](N)C(=O)O)cc1)[C@H](Cc1ccccc1)NC(=O)[C@H](CC(N)=O)NC(=O)c1ccc2ccccc2n1 ; value: >100 µM
NC(N)=NCCC[C@H](NC(=O)[C@@H]1CCCN1C(=O)[C@@H](Cc1ccc(O)cc1)NC(=O)[C@H](Cc1ccc2ccccc2c1)NC(=O)[C@H](CCCN=C(N)N)NC(=O)[C@@H](N)CCCN=C(N)N)C(=O)O ; value: >100 µM
O=C(CSc1nncnc1-c1cccc2ccccc12)Nc1ccccc1[N+](=O)[O-] ; value: 142 µM
CCCCCCCC/C=C\CCCCCCCC(=O)O[C@@H]1Cc2ccccc2[C@@H]1NC(=O)[C@H](Cc1ccccc1)C[C@H](O)CN1CCN(Cc2cccnc2)C[C@H]1C(=O)NC(C)(C)C ; value: >100 µM
CC(C)(C)C(=O)SCCOP(=O)(CC[C@H]1CO[C@@H](n2cnc3c(N)ncnc32)[C@@H]1F)OCCSC(=O)C(C)(C)C ; value: 80 µM
CCc1s/c(=N\S(=O)(=O)c2cccc([N+](=O)[O-])c2)n(C)c1C ; value: >25 µM
CCCCCCCC/C=C\CCCCCCCC(=O)OCC(COC(=O)CCCCCCC/C=C\CCCCCCCC)OC(=O)CCC(=O)O[C@H](CN1C[C@H]2CCCC[C@H]2C[C@H]1C(=O)NC(C)(C)C)[C@H](Cc1ccccc1)NC(=O)[C@H](CC(N)=O)NC(=O)c1ccc2ccccc2n1 ; value: >100 µM
CC(C)=CCn1c(=O)n2c3c(cc(Cl)cc31)S(=O)(=O)NC(C)C2 ; value: 91 µM
CCc1nc2ccccn2c1C(=O)c1ccc(O)cc1 ; value: 80 µM
CC(C)c1s/c(=N\S(=O)(=O)c2cccc([N+](=O)[O-])c2)n(C)c1C(N)=O ; value: >25 µM
CCN1CCn2c(=O)[nH]c3cc(Cl)cc(c32)S1(=O)=O ; value: >200 µM
CN(C)C(=O)N1CCN(C(=O)N2CCCCC2)CC1 ; value: >125 µg/mL
c1cc2cc(NCCCNC3=NCCN3)ccc2[nH]1 ; value: 166 µM
CC(=O)c1ccc(NC(=O)CSc2nncnc2-c2cccc3ccccc23)c(Br)c1 ; value: 133 µM
CN=C(N)NCCCNc1ccc2[nH]ccc2c1 ; value: 144 µM
Cc1cc(C)cc(C(=O)c2cccnc2Nc2cnccn2)c1 ; value: 240 µM
O=C1CCC(c2ccccc2)C(=O)N1CCCN1CCN(c2ccccc2O)CC1 ; value: >100 µM
Cc1cc(C#N)cc(C)c1Oc1ccc([N+](=O)[O-])c(NC2CCN(Cc3ccc(S(N)(=O)=O)cc3)CC2)n1 ; value: 27 µM
O=C(CSc1nncnc1-c1cccc2ccccc12)Nc1ccccc1Cl ; value: 63 µM
O=c1ccccc(-c2cncnc2)c1O ; value: 29 µM
CC(C[C@H](NC(=O)COc1cccc2cnccc12)C(=O)N[C@@H](Cc1ccccc1)[C@H](O)C(=O)N1CSC[C@H]1C(=O)NC(C)(C)C)C(F)(F)F ; value: 12.5 µg/mL
CC1C(=O)Nc2ccc(Cl)cc2S(=O)(=O)N1Cc1c(F)cccc1F ; value: >200 µM
COc1ccccc1N1CCN(CCCCN2C(=O)CCC(c3ccccc3)C2=O)CC1 ; value: >100 µM
NCCCC[C@@H](NC(=O)[C@H](Cc1ccc2ccccc2c1)NC(=O)[C@H](CCCN=C(N)N)NC(=O)[C@@H](N)CCCN=C(N)N)C(=O)N1CCC[C@H]1C(=O)N[C@@H](CCCN=C(N)N)C(=O)O ; value: >100 µM
CN1C/C(=C\c2cc(O)c(O)c(O)c2)C(=O)/C(=C/c2cc(O)c(O)c(O)c2)C1 ; value: 46 µM
CCc1nc2ncccn2c1C(=O)c1ccccc1 ; value: 620 µM
CC(=N)CCNC(=O)c1cc(NC(=O)c2cc(NC(=O)c3cc(NP(=O)(OC[C@@H]4C=C[C@H](n5cc(C)c(=O)[nH]c5=O)O4)OC4CCCCC4)cn3C)cn2C)cn1C ; value: 76 µM
C#Cc1ccc(Nc2nccc(Oc3c(C)cc(-c4cn(-c5cccc(C(=O)OC)c5)nn4)cc3C)n2)cc1 ; value: >242 µM
CC(C)Nc1cccnc1N1CCN(C(=O)c2cc3cc(NS(C)(=O)=O)ccc3[nH]2)CC1 ; value: >25 µM
CCc1nc2ccccn2c1C(=O)c1ccccc1 ; value: 180 µM
Cn1c(Cn2ccc(C(F)(F)F)c(Oc3ccc(-c4ccc(C#N)cc4)c(F)c3)c2=O)n[nH]c1=O ; value: 37.8 µM
CN(C)C(=O)N1CCN(C(=O)N2CCOCC2)CC1 ; value: >125 µg/mL
CC(C)Nc1cccnc1N1CCN(C(=O)c2cc3cc(NS(C)(=O)=O)ccc3[nH]2)CC1 ; value: >3.83 µM
Cc1ccc(NC(=O)CSc2nncnc2-c2cccc3ccccc23)c(Br)c1 ; value: 166 µM
Cc1cn([C@H]2C[C@H](N=[N+]=[N-])[C@@H](CO)O2)c(=O)[nH]c1=O ; value: >93.55 µM
CN(C)C(=O)N1CCN(C(=O)N(C)CCN2CCCCC2)CC1 ; value: 125 µg/mL
Cc1cc(C#N)cc(C)c1Oc1nc(Nc2ccc(C#N)cc2)nc(N)c1Br ; value: 4.41 µM
CCN(CC)C(=O)N1CCN(C(=O)N2CCN(C)CC2)CC1 ; value: >125 µg/mL
NCCCNc1ccc2[nH]ccc2c1 ; value: 229 µM
CCN(CC)C(=O)N1CCN(C(=O)N2CCCCC2)CC1 ; value: >125 µg/mL
CC(C)Nc1cccnc1N1CCN(C(=O)c2cc3cc(NS(C)(=O)=O)ccc3[nH]2)CC1 ; value: >3.827 µM
O=C(CSc1nncnc1-c1cccc2ccccc12)Nc1ccccc1 ; value: 154 µM
CC(=O)c1ccc(Nc2ncccc2C(=O)c2cc(C)cc(C)c2)cc1 ; value: 34.77 µM
CCc1nc2ccccn2c1C(=O)c1cccs1 ; value: 240 µM
C#Cc1ccc(Nc2nccc(Oc3c(C)cc(-c4cn(Cc5cccc([N+](=O)[O-])c5)nn4)cc3C)n2)cc1 ; value: 101 µM
Cc1cn([C@H]2C[C@@H](N=[N+]=[N-])[C@@H](CO)O2)c(=O)[nH]c1=O ; value: >93 µM
CCN(CC)C(=O)N1CCN(C(=O)N2CCOCC2)CC1 ; value: >125 µg/mL
C=C(C)CN1C(C)C(=S)Nc2ccc(Cl)cc2S1(=O)=O ; value: 47 µM
CC(C)c1nc(SCC(N)=O)n(Cc2ccncc2)c1CC1CCCCC1 ; value: >100 µM
CCCCOC(=O)N1CCN(C(=O)N(C)C)CC1 ; value: 39.3 µg/mL
CC(C)Nc1cccnc1N1CCN(C(=O)c2cc3cc(NS(C)(=O)=O)ccc3[nH]2)CC1 ; value: >36 µM
C=C1[C@H](CO)[C@@H](O)C[C@@H]1n1cnc2c(=O)[nH]c(N)nc21 ; value: >28 µM
CC(C)(C)NC(=O)[C@@H]1CSCN1C(=O)[C@@H](O)[C@H](Cc1ccccc1)NC(=O)[C@H](CC(F)(F)F)NC(=O)COc1cccc2cnccc12 ; value: 25 µg/mL
CCc1[nH]c(=S)[nH]c1Cc1cc(C)cc(C)c1 ; value: >100 µM
Cn1cc(NC(=O)c2cc(NC(=O)c3cc([N+](=O)[O-])cn3C)cn2C)cc1C(=O)NCCC#N ; value: 124 µM
Cc1cc(C)cc(C(=O)c2cccnc2Oc2ccc(N)cc2)c1 ; value: 123 µM
Cc1cn([C@H]2C[C@H](N=[N+]=[N-])[C@@H](CO)O2)c(=O)[nH]c1=O ; value: >1 µg/mL
CCOCn1c(SCC(N)=O)nc(C(C)C)c1CC1CCCCC1 ; value: >100 µM
CC(C)(C)NC(=O)[C@@H]1C[C@@H]2CCCC[C@@H]2CN1C[C@@H](OC(=O)CCCCOc1ccc(C[C@H](N)C(=O)O)cc1)[C@H](Cc1ccccc1)NC(=O)[C@H](CC(N)=O)NC(=O)c1ccc2ccccc2n1 ; value: >100 µM
CCOCn1c(SCC(N)=O)nc(CC)c1Cc1cc(C)cc(C)c1 ; value: >100 µM
O=C(CSc1nncnc1-c1ccccc1Cl)Nc1ccc(Cl)cc1Cl ; value: 51 µM
Cc1ccnc2c1NC(=O)c1cccnc1N2C1CC1 ; value: >15.02 µM
Cc1ccc(NC(=O)CSc2nncnc2-c2ccccc2Cl)c([N+](=O)[O-])c1 ; value: 158 µM
Cc1cc(C)c(Oc2ccc(N)c(NC3CCN(Cc4ccc(S(N)(=O)=O)cc4)CC3)n2)c(C)c1 ; value: 26 µM
Nc1nc2c(ncn2[C@@H]2OC[C@H](CCP(=O)(O)O)[C@H]2F)c(=O)[nH]1 ; value: 98 µM
O=C1CCC(c2ccccc2)C(=O)N1CCCCN1CCN(Cc2ccccc2)CC1 ; value: >100 µM
C[C@H](NC(=O)[C@H](Cc1ccc2ccccc2c1)NC(=O)[C@H](CCCN=C(N)N)NC(=O)[C@@H](N)CCCN=C(N)N)C(=O)N[C@@H](Cc1ccc(O)cc1)C(=O)O ; value: >100 µM
CCOCn1c(SCC(N)=O)nc(CC)c1CC1CCCCC1 ; value: >100 µM
CC(C)c1s/c(=N\S(=O)(=O)c2cccc([N+](=O)[O-])c2)n(C)c1C(F)(F)F ; value: >25 µM
Cc1cn([C@H]2C[C@H](N=[N+]=[N-])[C@@H](COP(=O)(Nc3cc(C(=O)Nc4cc(C(=O)Nc5cc(C(=O)NCCC#N)n(C)c5)n(C)c4)n(C)c3)OC3CCCCC3)O2)c(=O)[nH]c1=O ; value: 73 µM
C#Cc1ccc(Nc2nccc(Oc3c(C)cc(-c4cn(Cc5ccccc5[N+](=O)[O-])nn4)cc3C)n2)cc1 ; value: 7.22 µM
O=C1/C(=C/c2ccc(Cl)c(Cl)c2)COC/C1=C\c1ccc(Cl)c(Cl)c1 ; value: 200 µM
O=C1CCC(c2ccccc2)C(=O)N1CCCN1CCN(c2ccccn2)CC1 ; value: >100 µM
Cc1cc(C)cc(C(=Nc2ccc(C(N)=O)cc2)c2cccnc2Cl)c1 ; value: 34.01 µM

A second listing of 4 rows from above:

compound,value
C[C@H](NC(=O)[C@H](Cc1ccc2ccccc2c1)NC(=O)[C@H](CCCN=C(N)N)NC(=O)[C@@H](N)CCCN=C(N)N)C(=O)N[C@@H](Cc1ccc(O)cc1)C(=O)O,>100 µM
CN1C/C(=C\c2cc(O)c(O)c(O)c2)C(=O)/C(=C/c2cc(O)c(O)c(O)c2)C1,46 µM
CCc1[nH]c(=S)[nH]c1Cc1cc(C)cc(C)c1,>100 µM
CCc1nc2ccccn2c1C(=O)c1ccccc1,180 µM

CCn is the concentration with n% toxicity to the cells.